Compound potency records, mixed from different reports. Data source: NIAID ChemDB in PubChem.

Shared fields: growth or infection tests; organism: Mycobacterium kansasii

Blank or dashed fields: not listed here. A number after MIC or MFC names an inhibition level or a share of isolates. Neighbouring rows are from separate reports.

structure | read-out | read by | strain or isolate | conditions | value
N/C(=N\N=C\c1cc(Cl)ccc1O)SCc1cccc(Cl)c1 | MIC | broth dilution | ATCC 12478 | 21 d | 32 µM
O=C(Nc1ccc(C(F)(F)F)cc1)c1ccc(Cl)cc1OS(=O)(=O)c1ccccc1 | MIC |  | 6509/96 | 14 d | 4 µM
O=C(N[C@@H](Cc1ccccc1)c1cnc(-c2ccc([N+](=O)[O-])cc2)[nH]1)OCc1ccccc1 | MIC |  | My 235/80 | 7 d | 16 µM
COc1ccc2oc(=O)n(-c3cccc(F)c3)c(=S)c2c1 | MIC |  | 6509/96 | 21 d | 32 µM
O=C(Oc1cc(Cl)ccc1C(=O)Nc1ccc(C(F)(F)F)cc1)c1ccccc1 | MIC | broth dilution | 6509/96 | 21 d | 4 µM
O=C(Oc1cc(Cl)ccc1C(=O)Nc1ccc(Cl)c(Cl)c1)c1cnccn1 | MIC |  | 235/80 | 7 d | 4 µM
CC[C@@H](C)[C@H](NC(=O)OCc1ccccc1)c1cnc(-c2ccc([N+](=O)[O-])cc2)[nH]1 | MIC |  | My 6509/96 | 14 d | 16 µM
O=C(Nc1cccc(Cl)c1)c1cc(Cl)ccc1OS(=O)(=O)c1ccccc1 | MIC |  | 6509/96 | 14 d | 16 µM
Fc1ccc(-n2c(=S)oc3ccc(Br)cc3c2=S)cc1 | MIC |  | 6509/96 | 21 d | 16 µM
O=C(Nc1cccc(Cl)c1)c1ccc(Cl)cc1OS(=O)(=O)c1ccccc1 | MIC |  | 6509/96 | 21 d | 500 µM
N/C(=N\N=C\c1ccccc1)SCc1cccc(Cl)c1 | MIC | broth dilution | ATCC 12478 | 21 d | 62.5 µM
C[C@H](NC(=O)OCc1ccccc1)c1cnc(-c2ccc([N+](=O)[O-])cc2)[nH]1 | MIC |  | My 6509/96 | 21 d | >125 µM
N/C(=N\N=C\c1cc(Br)ccc1O)SCc1ccc(C(F)(F)F)cc1 | MIC | broth dilution | 6509/96 | 14 d | 32 µM
C[C@@H](NC(=O)OCc1ccccc1)c1cnc(-c2ccc([N+](=O)[O-])cc2)[nH]1 | MIC |  | My 235/80 | 7 d | >125 µM
O=c1oc2ccc(F)cc2c(=S)n1-c1ccc(Br)cc1 | MIC |  | My 235/80 | 14 d | 2 µM
N/C(=N\N=C\c1ccccc1O)SCc1ccc(Br)cc1 | MIC | broth dilution | 6509/96 | 14 d | 32 µM
O=C(OCc1ccccc1)N1CCC[C@H]1c1cnc(-c2ccc([N+](=O)[O-])cc2)[nH]1 | MIC |  | My 235/80 | 21 d | 250 µM
NC(=O)c1cnccn1 | MIC |  | 6509/96 | 21 d | 1000 µM
O=C(Nc1ccc(F)cc1)c1cc(Cl)ccc1OS(=O)(=O)c1ccccc1 | MIC |  | 6509/96 | 14 d | 16 µM
O=C(Oc1ccc(Cl)cc1C(=O)Nc1ccc(Cl)cc1)c1cnccn1 | MIC |  | 6509/96 | 14 d | 2 µM
O=C(Oc1ccc(Cl)cc1C(=O)Nc1ccc(Br)cc1)c1ccccc1 | MIC | broth dilution | 235/80 | 14 d | 4 µM
COc1ccc2oc(=S)n(-c3ccc(Cl)cc3)c(=S)c2c1 | MIC |  | My 235/80 | 14 d | 32 µM
O=C(Nc1cccc(C(F)(F)F)c1)c1cc(Cl)ccc1OS(=O)(=O)c1ccccc1 | MIC |  | 6509/96 | 7 d | 8 µM
O=C(NNC(=O)c1ccncc1)Nc1ccc(Br)cc1F | MIC100 | broth dilution | My 6509/96 | 21 d | >125 µM
Nc1ccc(C(=O)O)c(O)c1 | MIC |  | 6509/96 | 14 d | 125 µM
O=C(Nc1cccc(F)c1)c1ccc(Cl)cc1OS(=O)(=O)c1ccccc1 | MIC |  | 235/80 | 7 d | 16 µM
N/C(=N\N=C\c1ccccc1)SCc1ccc(Br)cc1 | MIC | broth dilution | ATCC 12478 | 14 d | 62.5 µM
CCCCc1ccc(NC(=O)NNC(=O)c2ccncc2)cc1 | MIC100 | broth dilution | My 6509/96 | 7 d | 32 µM
O=C(Oc1ccc(Cl)cc1C(=O)Nc1cccc(C(F)(F)F)c1)c1cnccn1 | MIC |  | 235/80 | 14 d | 8 µM
O=C(Oc1cc(Cl)ccc1C(=O)Nc1cccc(Br)c1)c1ccccc1 | MIC | broth dilution | 6509/96 | 21 d | 4 µM
COc1ccc(Nc2nnc(-c3ccncc3)o2)cc1 | MIC100 | broth dilution | My 6509/96 | 14 d | >125 µM
O=C(Nc1cccc(F)c1)c1cc(Cl)ccc1OS(=O)(=O)c1ccccc1 | MIC |  | 235/80 | 7 d | 32 µM
O=C(Oc1cc(Cl)ccc1C(=O)Nc1cccc(Cl)c1)c1ccccc1 | MIC | broth dilution | 6509/96 | 14 d | 4 µM
O=C(Oc1cc(Cl)ccc1C(=O)Nc1ccc(C(F)(F)F)cc1)c1cnccn1 | MIC |  | 235/80 | 14 d | 1 µM
N/C(=N\N=C\c1ccccc1O)SCc1cccc(Cl)c1 | MIC | broth dilution | 6509/96 | 14 d | 16 µM
O=C(Oc1cc(Cl)ccc1C(=O)Nc1ccc(Cl)cc1)c1cnccn1 | MIC |  | 6509/96 | 7 d | 2 µM
O=c1oc2ccc(F)cc2c(=S)n1-c1ccc(Cl)cc1 | MIC |  | 6509/96 | 14 d | 1 µM
O=C(Oc1cc(Cl)ccc1C(=O)Nc1ccc(Cl)cc1)c1ccccc1 | MIC | broth dilution | 6509/96 | 7 d | 2 µM
C[C@@H](NC(=O)OCc1ccccc1)c1cnc(-c2ccccc2)[nH]1 | MIC |  | My 6509/96 | 14 d | 125 µM
CCCCCCc1ccc(NC(=O)NNC(=O)c2ccncc2)cc1 | MIC100 | broth dilution | My 235/80 | 7 d | 32 µM
O=C(Oc1cc(Cl)ccc1C(=O)Nc1cccc(F)c1)c1cnccn1 | MIC |  | 6509/96 | 21 d | 8 µM

A second listing of 2 rows from above:

structure,read-out,read by,strain or isolate,conditions,value
O=C(Oc1ccc(Cl)cc1C(=O)Nc1ccc(Cl)cc1)c1cnccn1,MIC,,6509/96,14 d,2 µM
N/C(=N\N=C\c1ccccc1O)SCc1cccc(Cl)c1,MIC,broth dilution,6509/96,14 d,16 µM